Compound potency records, mixed from different reports. Data source: NIAID ChemDB in PubChem.

Shared fields: growth or infection tests; agent: HIV-1; method: p24; measure: inhibition

Rows are shuffled and stem from different studies. An empty or dashed field is not shown. Inhibition is in % at the dose shown (toxicity tests: loss of growth or viability).

SMILES	mutations	cell line	setting	tested at	strain	result
CCC[C@@]1(CCc2ccccc2)CC(O)=C([C@H](CC)c2cccc(NS(=O)(=O)c3ccc(C(F)(F)F)cn3)c2)C(=O)O1		PBMC		0.17 µM	Isolate N. Amer 1	90%
COC(=O)[C@@H]1C2CCC(C[C@@H]1OC(=O)c1ccccc1)N2C		H9		50 µg/mL	IIIB	<0%
C=C/C=C(\C=C/Cc1c2nc(c(-c3ccc(S(=O)(=O)NCCN(CC)CC)cc3)c3ccc([n-]3)c(C/C=C\C(=C/C=C)S(=O)(=O)NCCN(CC)CC)c3ccc([n-]3)c(-c3ccc(S(=O)(=O)NCCN(CC)CC)cc3)c3nc1C=C3)C=C2)S(=O)(=O)NCCN(CC)CC.[O]=[V+2]		HUT/CCR5 + HUT	7 d	5 µM	BaL	97%
C/C(=C(/CCOC(=O)C(C)C)SS/C(CCOC(=O)C(C)C)=C(\C)N(C=O)Cc1cnc(C)nc1N)N(C=O)Cc1cnc(C)nc1N		H9/HIV-1(MN) + H9		50 µM	MN	60%
Oc1ccc(/C=C/c2cc(O)cc(O)c2)cc1	RT-K65R L74V M184V	PBMC		5 µM	ddI-resistant (RT K65R/L74V/M184V)	30%
NCC(=O)N1CCC[C@H]1C(=O)NCC=O		HUT		25 µg/mL	ELI	0%
CC(=O)[C@H]1CC[C@H]2[C@@H]3CCC4=CC(=O)CC[C@]4(C)[C@H]3CC[C@]12C		U-937		0.1 µM	LTR-CAT	37.6%
CC(C)(C)NC(=O)[C@@H]1C[C@@H]2CCCC[C@@H]2CN1C[C@@H](O)[C@H](Cc1ccccc1)NC(=O)[C@H](CC(N)=O)NC(=O)c1ccc2ccccc2n1		Macrophage + Monocytes/macrophages		2 µM	BaL	98%
NC(N)=NCCC[C@H](NC(=O)[C@@H](N)Cc1ccc(O)cc1)C(=O)NCC(=O)N1CCC[C@H]1C(=O)NCC=O		HUT		25 µg/mL	ELI	0%
c1cc(CN2CCCNCCNCCCNCC2)ccc1CN1CCCNCCNCCCNCC1		PBMC		0.5 µM	SW26 CLADE C R5	8%
O=C1N(Cc2ccc(CO)cc2)[C@H](Cc2ccccc2)[C@H](O)[C@@H](O)[C@@H](Cc2ccccc2)N1Cc1ccc(CO)cc1		PBMC		0.16 µM	9156 clinical isolate	90%
COc1ccc(CN[C@@H](C(=O)N[C@H]2c3ccccc3C[C@H]2O)[C@H](O)[C@H](Cc2ccccc2)NC(=O)[C@@H](NC(=O)OCc2ccccc2)C(C)(C)C)cc1		HuT-78 + HUT 78		0.23 µM	IIIB	90%
CC(=O)N1CCC(C(=O)N(CCCN2CCC(Cc3ccc(C(N)=O)cc3)CC2)c2ccc(C)c(Cl)c2)CC1		PBMC		0.012 µM	HKW R5 clinical isolate	90%
NCC(=O)N1CCC[C@H]1C(=O)NCC(=O)NCC=O		H9		25 µg/mL	IIIB	67.9%
CC(C)[C@H](NC(=O)c1ccc2ccccc2n1)C(=O)N[C@@H](Cc1ccccc1)[C@H](O)CN1CC[C@@H](OCc2ccncc2)C[C@H]1C(=O)NC(C)(C)C		C8166		0.034 µM	ddI-resistant	90%
NC(=O)NO		PBMC		100 µM	NL4-3	55%
O=Nc1c(-c2c(O)[nH]c3ccccc23)[nH]c2ccccc12		PBMC		1 µM	RT-M41L L74V V106A T215Y RTMDR	55.5%
O=S(=O)(O)c1cc(N=C=S)ccc1/C=C/c1ccc(N=C=S)cc1S(=O)(=O)O		JM		100 µg/mL	GB8	99.8%
NC(N)=NCCC[C@@H](C=O)NC(=O)CNC(=O)[C@@H]1CCCN1C(=O)CNC(=O)[C@@H](N)CCCN=C(N)N		HUT		25 µg/mL	ELI	0%
CC(C)(O)c1cccc(CN2C(=O)N(Cc3cccc(C(C)(C)O)c3)[C@H](Cc3ccccc3)[C@H](O)[C@@H](O)[C@H]2Cc2ccccc2)c1	PR-V82F/184V	MT-2/MT-4 + MT-2		5.7785 µM	HXB2	90%
NC(N)=NCCC[C@@H](C=O)NC(=O)CNC(=O)[C@@H]1CCCN1		H9		25 µg/mL	IIIB	0%
CCC1=C(CC)c2cc3[n-]c(cc4[n-]c(cc5nc(cc1n2)C(CC)=C5CC)c(CC)c4CC)c(CC)c3CC.[O]=[V+2]		HUT/CCR5 + HUT	7 d	5 µM	BaL	42%

Repeating the final 2 entries:

SMILES | mutations | cell line | setting | tested at | strain | result
NC(N)=NCCC[C@@H](C=O)NC(=O)CNC(=O)[C@@H]1CCCN1 |  | H9 |  | 25 µg/mL | IIIB | 0%
CCC1=C(CC)c2cc3[n-]c(cc4[n-]c(cc5nc(cc1n2)C(CC)=C5CC)c(CC)c4CC)c(CC)c3CC.[O]=[V+2] |  | HUT/CCR5 + HUT | 7 d | 5 µM | BaL | 42%